This passage reports Kd results from PMC6992781, “Structure of the prefusion-locking broadly neutralizing antibody RVC20 bound to the rabies virus glycoprotein” (2020).

Where “and” joins values, the source holds several entries; their conditions need not be identical. Equal values may be shown once.

Holding throughout (experiment): BLI
The target in assay [1] is RVC20 (mature), recombinant human IgG1 (human).
Assay [2] concerns the target RVC20 D92N(VK), recombinant human IgG1 (human).
The target of assay [3] is RVC20 S98Y(VH), recombinant human IgG1 (human).
The target of assay [4] is RVC20 T93S(VK), recombinant human IgG1 (human).
Assay [5] concerns the target RVC20 UA Y35S(VH)/S35bN(VH)/F100fL(VH)/Y87F(VK), recombinant human IgG1 (human).
In assay [6] the target is RVC20 VH(Mature)/VK(UA), recombinant human IgG1 (human).
Assay [7] concerns the target RVC20 VH(UA)/VK(Mature), recombinant human IgG1 (human).
In assay [8] the target is RVC20 inferred unmutated ancestor (UA), recombinant human IgG1 (human).

One may read the Kd as the concentration at which binding is half-saturated.

As to “RABV G ectodomain K1-S403 (F74H, W121H), strain 9147FRA (domain or fragment)”, the Kd in assay [1] is 13.5 nM and 16.5 nM and 17.7 nM; in assay [2], 29.6 nM and 32.9 nM and 30.5 nM; in assay [3], 16 nM and 17.8 nM and 18.4 nM; in assay [4] it was 17.7 nM and 19.2 nM and 20.1 nM; in assay [5] it was 43.4 nM and 44 nM and 46.7 nM; in assay [6], 26.4 nM and 28.2 nM and 29.4 nM. The Kd is 50 nM and 55.2 nM and 56.6 nM in assay [7]; 1260 nM and 1190 nM and 1430 nM in assay [8].
